The other results are listed elsewhere or left out. Env chains of viruses from a treatment-interruption trial, translated from the printed DNA. IC50 / IC80 of two broadly neutralizing antibodies; lower = more sensitive virus; >50 µg/ml means not reached and <0.001 µg/ml is below the lowest dose. No active / inactive call.
What was measured:
[1] = target: antibody 10-1074; assay: neutralization IC50; higher = virus less sensitive to the antibody
Protocol: (§1)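 Pseudovirus bearing the Env chain mixed with antibody, from 50 µg/ml in fivefold dilutions, on TZM-bl reporter cells, in duplicate.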

[2] = target: antibody 3BNC117; assay: as above
Protocol: as §1

[3] = target: antibody 10-1074; assay: neutralization IC80; higher = virus less sensitive to the antibody
Protocol: as §1

[4] = target: antibody 3BNC117; assay: as above
Protocol: as §1

B1: HIV-1 Env, rebound clone, placebo arm (protein)
chain: MRVKGIRKNCQRLWRWGTMLLGLLMICSATEKLWVTVYYGVPVWKEANTTLFCASNAKAYDTEAHNVWATHACVPTDPNPQELDLKNVTENFNMWKNNMVEQMHEDIISLWDQSLKPCVKLTPLCVTLNCTDEVNLRVNSSNSNSSINSNSSISNSSIEEKGEIKNCSFNITTSIRDKVTKEYALFYRLDVVSIKDDNPNNTSYRLINCNTSVITQACPKVSFEPIPIHYCAPAGFAILKCKDKEFNGSGPCQNVSTVQCTHGIKPVVSTQLLLNGSLAEGEVVIRSENFSDNAKTIIVQLSRPVVINCTRPNNNTRKSIHIAPGRTFYATGDIIGDIRQAHCNISKRDWNKTLEEVKGKLEKQYNKTIFFNQSSGGDPEIVMHTFNCAGEFFYCNTTNLFNNNITINATDTNATDTNATITLPCKIKQIINLWQEVGKAMYAPPIKGQIRCLSNITGLLLTRDGGINENGTNDTFRPGGGDMRDNWRSELYRYKVVKIEPLGIAPTKAKRRVVQREKRAVGIGAMFLGILGAAGSTMGAASITLTVQARLLLSGIVQQQNNLLRAIEAQQHLLQLTVWGIKQLQARVLAVERYLKDQQLLGIWGCSGKLICTTSVPWNSSWSNRSLDYIWNNMTWMQWEREIDNYTGRIYTLIEEAQHQQEENELELLKLDEWSNLWNWFDILKWLWYIKIFIMIVGGLIGLRIVFAVISIVNRVRKGYSPLSFQTHFPAPRGPDRPGGIEEEGGDRDRDRSTRLVDGFLALVWDDLRSLILFLYHHLRDLLLIITRIVGLLGRRGWEILKYWWNLLQYWSRELKLSAISLYNATAIAVAEGTDRVIEVVQRIFRGVLHVPRRIRQGLERILV
[1]
  neutralization IC50: 0.091 µg/mL
[2]
  neutralization IC50: 0.081 µg/mL
[3]
  neutralization IC80: 0.51 µg/mL
[4]
  neutralization IC80: 0.285 µg/mL

B2: HIV-1 Env, rebound clone, placebo arm (protein)
chain: MKVKGIRKNYQHLWRWGTMLLGMLMICSAADKLWVTVYYGVPVWKDATTTLFCASDAKAYDTEVHNVWATHACVPTDPDPQEVVLNVTENFNMWKNDMVGQMHEDIISLWDQSLKPCVKLTPLCVTLHCTNATSKNTTGAKNTTSTTNTTGGIEGKIKQEMKNCSFNVTTDIKDKMQRQYALFYKLDIVPIDNNDSYRLISCNTSVITQACPKVSFEPIPIHYCAPAGFAILKCNDKKFNGKGTCNNVSTVQCTHGIRPVVSTQLLLNGSLAEEDVVIRSDNFSDNAKTIIVQLNETVKINCTRPGNNTRKSITMGPGRAFYGTEDIIGDIRKAHCNISREGWNNTLKRVAEKLREKFENRTIVFNHSSGGDPEIVMHSFNCGGEFFYCNTTPLFGSTWNSTWNGNDTTESNSSTITLQCRIKQIINMWQEVGKAMYAPPIKGNIICSSNITGLLLTRDGGKTNETNTTTEIFRPGGGDMRNNWRSELYKYKVVQIEPLGVAPTKAKRRVVQREKRAVTLGAMFLGFLGAAGSTMGAASMMLTVQARQLLSGIVQQQNNLLRAIEAQQHLLQLTVWGIKQLQARVLAVERYLKDQQLLGIWGCSGKLICPTAVPWNASWSNKSLDIIWNNMTWMQWEKEISNYTGLIYNLIEESQNQQEKNEQELLELDKWDSLWNWFSITKWLWYIKIFIMIVGGLIGLRIIFAVLSIVNRVRQGYSPLSLQTLLPAPRGPDRPEGIEEEGGERERDRSGRLVTGLLELIWEDLRSLCLFSYHRLRDLLLITARTVGLLGSRGWEILKYLWNLLQYWSQELKSSAISLFNATAITVAEGTDRVIEVVLRVFRAIRNIPRRIRQGFERALQ
[1]
  neutralization IC50: 6.12 µg/mL
[2]
  neutralization IC50: 0.172 µg/mL
[3]
  neutralization IC80: > 50 µg/mL
[4]
  neutralization IC80: 0.808 µg/mL

B3: HIV-1 Env, rebound clone, placebo arm (protein)
chain: MKVKGIRKNYQHLWRWGTMLLGMLMICSAADKLWVTVYYGVPVWKDATTTLFCASDAKAYDTEVHNVWATHACVPTDPDPQEVVLNVTENFNMWKNDMVGQMHEDIISLWDQSLKPCVKLTPLCVTLHCTNATSKNTTGAKNTTSTTNTTGGIEGKIKQEMKNCSFNVTTDIKDKMQRQYALFYKLDIVPIDNNDSYRLISCNTSVITQACPKVSFEPIPIHYCAPAGFAILKCNDKKFNGKGTCNNVSTVQCTHGIRPVVSTQLLLNGSLAEEDVVIRSDNFSDNAKTIIVQLNETVKINCTRPGNNTRKSITMGPGRAFYGTEDIIGDIRKAHCNISREGWNNTLKRVAEKLREKFENRTIVFNHSSGGDPEIVMHSFNCGGEFFYCNTTPLFGSAWNSTWNGNDTTESNSSTITLQCRIKQIINMWQEVGKAMYAPPIKGNIICSSNITGLLLTRDGGKTNETNTTTEIFRPGGGDIRDNWRSELYKYKVVQIEPLGVAPTKAKRRVVQREKRAVTLGAMFLGFLGAAGSTMGAASMMLTVQARQLLSGIVQQQNNLLRAIEAQQHLLQLTVWGIKQLQARVLAVERYLRDQQLLGIWGCSGKLICPTAVPWNASWSNKSLDIIWNNMTWMQWEKEISNYTGLIYSLIEESQNQQEKNEQELLELDKWDSLWNWFSITKWLWYIKIFIMIVGGLIGLRIIFAVLSIVNRVRQGYSPLSLQTLLPAPRGPDRPEGIEEEGGERERDRSGRLVTGLLELIWEDLRSLCLFSYHRLRDLLLITARTVGLLGSRGWEILKYLWNLLQYWSQELKSSAISLFNATAITVAEGTDRVIEVVLRVFRAIRNIPRRIRQGFERALQ
[1]
  neutralization IC50: 4.27 µg/mL
[2]
  neutralization IC50: 0.077 µg/mL
[3]
  neutralization IC80: 39.4 µg/mL
[4]
  neutralization IC80: 0.364 µg/mL

B4: HIV-1 Env, rebound clone, placebo arm (protein)
chain: MKVKGIRKNYQHLWRWGTMLLGMLMICSAADKLWVTVYYGVPVWKDATTTLFCASDAKAYDTEVHNVWATHACVPTDPDPQEVVLNVTENFNMWKNDMVGQMHEDIISLWDQSLKPCVKLTPLCVTLHCTNATSKNTTGAKNTTSTTNTTGGIEGKIKQEMKNCSFNVTTDIKDKMQRQYALFYKLDIVPIDNNDSYRLISCNTSVITQACPKVSFEPIPIHYCAPAGFAILKCNDKKFNGKGTCNNVSTVQCTHGIRPVVSTQLLLNGSLAEEDVVIRSDNFSDNAKTIIVQLNETVKINCTRPGNNTRKSITMGPGRAFYGTEDIIGDIRKAHCNISREGWNNTLKRVAEKLREKFENRTIVFNHSSGGDPEIVMHSFNCGGEFFYCNTTPLFGSTWNSTWNGNDTTESNSSTITLQCRIKQIINMWQEVGKAMYAPPIKGNIICSSNITGLLLTRDGGKTNETNTTTEIFRPGGGDIRDNWRSELYKYKVVQIEPLGVAPTKAKRRVVQREKRAVTLGAMFLGFLGAAGSTMGAASMMLTVQARQLLSGIVQQQNNLLRAIEAQQHLLQLTVWGIKQLQARVLAVERYLRDQQLLGIWGCSGKLICPTAVPWNASWSNKSLDIIWNNMTWMQWEKEISNYTGLIYSLIEESQNQQEKNEQELLELDKWDSLWNWFSITKWLWYIKIFIMIVGGLIGLRIIFAVLSIVNRVRQGYSPLSLQTLLPAPRGPDRPEGIEEEGGERERDRSGRLVTGLLELIWEDLRSLCLFSYHRLRDLLLITARTVGLLGSRGWEILKYLWNLLQYWSQELKSSAISLFNATAITVAEGTDRVIEVVLRVFRAIRNIPRRIRQGFERALQ
[1]
  neutralization IC50: 3.45 µg/mL
[2]
  neutralization IC50: 0.124 µg/mL
[3]
  neutralization IC80: 31 µg/mL
[4]
  neutralization IC80: 0.341 µg/mL

B5: HIV-1 Env, rebound clone, placebo arm (protein)
chain: MKVKGIRKNYQHLWRWGTMLLGMLMICSAADKLWVTVYYGVPVWKDATTTLFCASDAKAYDTEVHNVWATHACVPTDPDPQEVVLNVTENFNMWKNDMVGQMHEDIISLWDQSLKPCVKLTPLCVTLHCTNATSKNTTGAKNTTSTTNTTGGIEGKIKQEMKNCSFNVTTDIKDKMQRQYALFYKLDIVPIDNNDSYRLISCNTSVITQACPKVSFEPIPIHYCAPAGFAILKCNDKKFNGKGTCNNVSTVQCTHGIRPVVSTQLLLNGSLAEEDVVIRSDNFSDNAKTIIVQLNETVKINCTRPGNNTRKSITMGPGRAFYGTEDIIGDIRKAHCNISREGWNNTLKRVAEKLREKFENRTIVFNHSSGGDPEIVVHSFNCGGEFFYCNTTPLFGSTWNSTWNGNDTTESNSSTITLQCRIKQIINMWQEVGKAMYAPPIKGNIICSSNITGLLLTRDGGKTNETNTTTEIFRPGGGDIRDNWRSELYKYKVVQIEPLGVAPTKAKRRVVQREKRAVTLGAMFLGFLGAAGSTMGAASMMLTVQARQLLSGIVQQQNNLLRAIEAQQHLLQLTVWGIKQLQARVLAVERYLRDQQLLGIWGCSGKLICPTAVPWNASWSNKSLDIIWNNMTWMQWEKEISNYTGLIYSLIEESQNQQEKNEQELLELDKWDSLWNWFSITKWLWYIKIFIMIVGGLIGLRIIFAVLSIVNRVRQGYSPLSLQTLLPAPRGPDRPEGIEEEGGERERDRSGRLVTGLLELIWEDLRSLCLFSYHRLRDLLLITARTVGLLGSRGWEILKYLWNLLQYWSQELKSSAISLFNATAITVAEGTDRVIEVVLRVFRAIRNIPRRIRQGFERALQ
[1]
  neutralization IC50: 3.46 µg/mL
[2]
  neutralization IC50: 0.055 µg/mL
[3]
  neutralization IC80: 27.7 µg/mL
[4]
  neutralization IC80: 0.183 µg/mL

B6: HIV-1 Env, rebound clone, placebo arm (protein)
chain: MKVKGIRKNYQHLWRWGTMLLGMLMICSAADKLWVTVYYGVPVWKDATTTLFCASDAKAYDTEVHNVWATHACVPTDPDPQEVVLNVTENFNMWKNDMVGQMHEDIISLWDQSLKPCVKLTPLCVTLHCTNATSKNTTGAKNTTSTTNTTGGIEGKIKQEMKNCSFNVTTDIKDKMQRQYALFYKLDIVPIDNNDSYRLISCNTSVITQACPKVSFEPIPIHYCAPAGFAILKCNDKKFNGKGTCNNVSTVQCTHGIRPVVSTQLLLNGSLAEEDVVIRSDNFSDNAKTIIVQLNETVKINCTRPGNNTRKSITMGPGRAFYGTEDIIGDIRKAHCNISREGWNNTLKRVAEKLREKFENRTIVFNHSSGGDPEIVMHSFNCGGEFFYCNTTPLFGSTWNSTWNGNDTTESNSSTITLQCRIKQIINMWQEVGKAMYAPPIKGNIICSSNITGLLLTRDGGKTNETNTTTEIFRPGGGDMRNNWRSELYKYKVVQIEPLGVAPTKAKRRVVQREKRAVTLGAMFLGFLGAAGSTMGAASMMLTVQARQLLSGIVQQQNNLLRAIEAQQHLLQLTVWGIKQLQARVLAVERYLKDQQLLGIWGCSGKLICPTAVPWNASWSNKSLDIIWNNMTWMQWEKEISNYTGLIYNLIEESQNQQEKNEQELLELDKWDSLWNWFNITKWLWYIKIFIMIVGGLIGLRIIFAVLSIVNRVRQGYSPLSLQTLLPAPRGPDRPEGIEEEGGERERDRSGRLVTGLLELIWEDLRSLCLFSYHRLRDLLLITARTVGLLGSRGWEILKYLWNLLQYWSQELKSSAISLFNATAITVAEGTDRVIEVVLRVFRAIRNIPRRIRQGFERALQ
[1]
  neutralization IC50: 4.64 µg/mL
[2]
  neutralization IC50: 0.223 µg/mL
[3]
  neutralization IC80: 29.3 µg/mL
[4]
  neutralization IC80: 0.755 µg/mL

— the supplement of paper PMC12637763
